Data: patent US11377418B2, “Compounds and methods for treating influenza” (Macau University of Science and Technology, priority 2020, dated 2022)
No dose or concentration is given here for some results.

Test system: influenza A H1N1 (A/PR/8/34 virus)
Assay: cytopathic effect (CPE) inhibition assay in MDCK cells
Type: cell-based
Conditions: for fold more efficient against A/PR/8/34 virus: Compound 8 versus Compound 1, Compound 16 versus Compound 9

SMILES | SI | fold more efficient against A/PR/8/34 virus [fold]
CC(=O)OC[C@H](Cc1ccc(F)cc1)NC(=O)[C@H](Cc1ccccc1)NC(=O)c1ccc(F)cc1 [Compound 7, (S)-2-((S)-2-(4-fluorobenzamido)-3-phenylpropanamido)-3-(4-fluorophenyl)propyl acetate] | >24.1 | 
CC(=O)OC[C@H](Cc1ccc(F)cc1)NC(=O)[C@H](Cc1ccccc1)NC(=O)c1ccccc1 [Compound 4, (S)-2-((S)-2-benzamido-3-phenylpropanamido)-3-(4-fluorophenyl)propyl acetate] | >11.4 | 
CC(=O)OC[C@H](Cc1ccccc1)NC(=O)[C@H](Cc1ccccc1)NC(=O)c1ccc(F)cc1 [Compound 3, (S)-2-((S)-2-(4-fluorobenzamido)-3-phenylpropanamido)-3-phenylpropyl acetate] | >8.0 | 
CC(=O)OC[C@H](Cc1ccccc1)NC(=O)[C@H](Cc1ccc(F)cc1)NC(=O)c1ccc(F)cc1 [Compound 5, (S)-2-((S)-2-(4-fluorobenzamido)-3-(4-fluorophenyl)propanamido)-3-phenylpropyl acetate] | >8.6 | 
O=C(N[C@@H](Cc1ccc(F)cc1)C(=O)N[C@H](CO)Cc1ccc(F)cc1)c1ccc(F)cc1 [Compound 16, 4-fluoro-N—((S)-3-(4-fluorophenyl)-1-(((S)-1-(4-fluorophenyl)-3-hydroxypropan-2-yl)amino)-1-oxopropan-2-yl)benzamide] | >59.0 | 10
O=C(N[C@@H](Cc1ccc(F)cc1)C(=O)N[C@H](CO)Cc1ccccc1)c1ccccc1 [Compound 10, N—((S)-3-(4-fluorophenyl)-1-(((S)-1-hydroxy-3-phenylpropan-2-yl)amino)-1-oxopropan-2-yl)benzamide] | >26.0 | 
O=C(N[C@@H](Cc1ccccc1)C(=O)N[C@H](CO)Cc1ccc(F)cc1)c1ccccc1 [Compound 12, N—((S)-1-(((S)-1-(4-fluorophenyl)-3-hydroxypropan-2-yl)amino)-1-oxo-3-phenylpropan-2-yl)benzamide] | >21.3 | 
CC(=O)OC[C@H](Cc1ccccc1)NC(=O)[C@H](Cc1ccccc1)NC(=O)c1ccccc1 [Compound 1, (S)-2-((S)-2-benzamido-3-phenylpropanamido)-3-phenylpropyl acetate, reference compound] | >12.2 | 
O=C(N[C@@H](Cc1ccccc1)C(=O)N[C@H](CO)Cc1ccccc1)c1ccc(F)cc1 [Compound 11, 4-fluoro-N—((S)-1-(((S)-1-hydroxy-3-phenylpropan-2-yl)amino)-1-oxo-3-phenylpropan-2-yl)benzamide] | >7.9 | 
O=C(N[C@@H](Cc1ccccc1)C(=O)N[C@H](CO)Cc1ccccc1)c1ccccc1 [Compound 9, N—((S)-1-(((S)-1-hydroxy-3-phenylpropan-2-yl)amino)-1-oxo-3-phenylpropan-2-yl)benzamide, reference compound] | >11.4 | 
CC(=O)OC[C@H](Cc1ccc(F)cc1)NC(=O)[C@H](Cc1ccc(F)cc1)NC(=O)c1ccc(F)cc1 [Compound 8, (S)-2-((S)-2-(4-fluorobenzamido)-3-(4-fluorophenyl)propanamido)-3-(4-fluorophenyl)propyl acetate] | >60.6 | 10
O=C(N[C@@H](Cc1ccc(F)cc1)C(=O)N[C@H](CO)Cc1ccccc1)c1ccc(F)cc1 [Compound 13] | >34.1 | 
O=C(N[C@@H](Cc1ccc(F)cc1)C(=O)N[C@H](CO)Cc1ccc(F)cc1)c1ccccc1 [Compound 14, N—((S)-3-(4-fluorophenyl)-1-(((S)-1-(4-fluorophenyl)-3-hydroxypropan-2-yl)amino)-1-oxopropan-2-yl)benzamide] | >18.1 | 
O=C(N[C@@H](Cc1ccccc1)C(=O)N[C@H](CO)Cc1ccc(F)cc1)c1ccc(F)cc1 [Compound 15, 4-fluoro-N—((S)-1-(((S)-1-(4-fluorophenyl)-3-hydroxypropan-2-yl)amino)-1-oxo-3-phenylpropan-2-yl)benzamide] | >9.2 | 
CC(=O)OC[C@H](Cc1ccc(F)cc1)NC(=O)[C@H](Cc1ccc(F)cc1)NC(=O)c1ccccc1 [Compound 6, (S)-2-((S)-2-benzamido-3-(4-fluorophenyl)propanamido)-3-(4-fluorophenyl)propyl acetate] | >16.9 | 
